Measurements from PubChem BioAssay AID1619 (SRMLSC, 2009).
The list shows a part of the results. Measured potencies and affinities stand elsewhere. Calls of active or inactive are those of the source.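 The calls were made as follows: active = compound inhibiting the enzyme by more than half at any dose during confirmatory dose-response retesting; inconclusive = strong single-dose inhibitors picked by rank but not retested; inactive = the rest.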

Sequences of proteins named here, by UniProt entry; tags and fusion partners are left off. A change or cut given only in a name is not applied to a line headed by its entry.
UniProt Q8IL11: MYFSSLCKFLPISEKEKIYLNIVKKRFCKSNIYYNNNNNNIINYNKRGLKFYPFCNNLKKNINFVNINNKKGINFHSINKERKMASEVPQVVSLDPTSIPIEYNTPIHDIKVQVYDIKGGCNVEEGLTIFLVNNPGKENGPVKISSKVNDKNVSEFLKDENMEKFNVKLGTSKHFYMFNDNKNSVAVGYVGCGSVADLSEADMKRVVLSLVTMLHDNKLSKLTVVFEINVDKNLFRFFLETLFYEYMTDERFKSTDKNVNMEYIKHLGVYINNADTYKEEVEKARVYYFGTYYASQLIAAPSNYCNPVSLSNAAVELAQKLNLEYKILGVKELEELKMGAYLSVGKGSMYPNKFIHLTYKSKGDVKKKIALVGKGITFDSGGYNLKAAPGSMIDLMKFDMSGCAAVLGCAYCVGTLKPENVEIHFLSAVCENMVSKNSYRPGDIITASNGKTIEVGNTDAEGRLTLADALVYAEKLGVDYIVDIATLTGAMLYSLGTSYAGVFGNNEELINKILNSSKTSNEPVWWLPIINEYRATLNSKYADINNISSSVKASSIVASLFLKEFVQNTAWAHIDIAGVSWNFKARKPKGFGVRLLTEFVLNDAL

Target: Leucine aminopeptidase (Plasmodium falciparum (isolate 3D7)) (UniProt Q8IL11)
Experiment: P. falciparum M17LAP inhibitors, primary screen, biochemical, fluorogenic H-Leu-NHMec substrate, 1536-well (AID 1619);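 also: plate controls were full reaction with DMSO carrier for no effect and no enzyme background for full effect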
Conditions: recombinant M17LAP, H-Leu-NHMec fluorogenic kinetic assay; at 30 µM; active compounds read high

SMILES	inhibition
COc1cc(C(=O)NCC2(N3CCOCC3)CCCCC2)cc(Cl)c1OC(C)C	inactive: -7.11%
O=[As](O)(O)c1cccnc1	inactive: 0.96%
COc1cc(C2NCCC3(OCCO3)C2(C)C)cc(OC)c1OC (configuration not stated)	inactive: 19.7%
CCOP(=O)(Nc1cccc2ccccc12)OCC	inactive: 4.44%
Nc1cccc2c([As](=O)(O)O)cccc12	inactive: 9.06%
Cc1ccc(NCCc2c([N+](=O)[O-])cc([N+](=O)[O-])cc2[N+](=O)[O-])cc1	inactive: 13.3%
CCCOP(=S)(Nc1nc(N)cc(=O)[nH]1)OCCC	inactive: 0.1%
COc1ccc2nc(NP(=O)(c3ccccc3)c3ccccc3)sc2c1	inactive: -2.4%
COc1cc(I)ccc1[As](=O)(O)O	inactive: -3.03%
Cc1c2c(nc3ccccc13)SC(C(Cl)Cl)C2 (configuration not stated)	inactive: 2.33%
O=C(OC1CN2CCC1CC2)C12CC3CC(CC(C3)C1)C2 (configuration not stated)	inactive: 1.69%
Cc1cc(=O)[nH]c(N[N+](=O)[O-])n1	inactive: 2.54%
COc1ccc(N/C(=N/P(=O)(N2CCOCC2)N2CCOCC2)N2CCOCC2)cc1	inactive: 10.7%
Cc1ccc(OP(=O)(Nc2ccc([N+](=O)[O-])cn2)Oc2ccc(C)cc2)cc1	inactive: -4.54%
Cc1ccc2nc3c(c(C)c2c1)CC(C(Cl)Cl)S3 (configuration not stated)	inactive: -10.2%
O=[As](O)(c1ccc(O)cc1)c1ccccc1O	inactive: 21.3%

SMILES	inhibition
C[As](=O)(O)c1cccc(C(=O)O)c1	inactive: -4.16%
CCN(CC)C(=S)SC(NC=O)C(Cl)(Cl)Cl (configuration not stated)	inactive: -8.46%
CC(C)NC(=O)NP(=O)(Oc1ccccc1)Oc1ccccc1	inactive: -1.75%
O=[N+]([O-])c1cc([N+](=O)[O-])c(-c2ccn[nH]2)s1	inactive: 13.7%
ClCCSc1nnc(-c2cccnc2)o1	inactive: 26.4%
CC(C)c1ccc(OP(=O)(Nc2ccccn2)Oc2ccccc2F)cc1 (configuration not stated)	inactive: -6.26%
Cc1cc(SC(NC(=O)c2ccccc2)C(Cl)(Cl)Cl)nc(C(C)C)n1 (configuration not stated)	inactive: 6.27%
CCOC(=O)Nc1ccc([As](=O)(O)O)c(O)c1	inactive: 2.3%
O=P(Nc1ccccn1)(c1cccc2ccccc12)c1cccc2ccccc12	inactive: -4.99%
Cc1cc(SC(NC=O)C(Cl)(Cl)Cl)ncn1 (configuration not stated)	inactive: -0.23%
O=[N+]([O-])c1ccc(Nc2ccc(Oc3ccc([N+](=O)[O-])cc3[N+](=O)[O-])cc2)c([N+](=O)[O-])c1	inactive: -1.33%
CCOC(=O)Nc1cccc([As](=O)(O)O)c1	inactive: -4.42%
O=C(COc1ccccc1)OC1CN2CCC1CC2 (configuration not stated)	inactive: 2.28%
COP1(=S)c2c(C)nn(CCC#N)c2N=C(c2ccc(F)cc2)N1C (configuration not stated)	inactive: 2.7%
CCC(C)N(CC(C)C)C(=S)SC(NC(C)=O)C(Cl)(Cl)Cl (configuration not stated)	inactive: 0.42%
CCOC(=O)c1ccc(NC(=O)C(C)(CCl)SC)cc1 (configuration not stated)	inactive: -0.38%
